Results of unrelated studies side by side (data: NIAID ChemDB).

All rows: growth or infection tests; agent: Mycobacterium avium complex

MIC50, MIC90 and the like: level of inhibition, or share of isolates inhibited.

SMILES	method	strain	endpoint	result
CCN1CCN(c2cc3c(cc2F)c(=O)c(C(=O)O)cn3C2CC2)CC1		14 strains	MIC90	4 µg/mL
NC[C@H]1O[C@H](O[C@H]2[C@H](O)[C@@H](O[C@H]3O[C@H](CO)[C@@H](O)[C@H](N)[C@H]3O)[C@H](N)C[C@@H]2N)[C@H](O)[C@@H](O)[C@@H]1O		ATCC 15769	MIC	50 µg/mL
CC[C@@H](CO)NCCN[C@@H](CC)CO		3220	MIC	32 µg/mL
CO[C@H]1/C=C/O[C@@]2(C)Oc3c(C)c(O)c4c(O)c(c(/C=N/N5CCN(C)CC5)c(O)c4c3C2=O)NC(=O)/C(C)=C\C=C\[C@H](C)[C@H](O)[C@@H](C)[C@@H](O)[C@@H](C)[C@H](OC(C)=O)[C@@H]1C		13887 (serotype 14)	MIC	0.4 µg/mL
NCC[C@H](O)C(=O)N[C@@H]1C[C@H](N)[C@@H](O[C@H]2O[C@H](CN)[C@@H](O)[C@H](O)[C@H]2O)[C@H](O)[C@H]1O[C@H]1O[C@H](CO)[C@@H](O)[C@H](N)[C@H]1O		551/HIV+	MIC	2 µg/mL
CN1CC2CC1CN2c1c(F)cc2c(=O)c(C(=O)O)cn(C3CC3)c2c1F		14 strains	MIC50	2 µg/mL
NC[C@@H]1O[C@H](O[C@H]2[C@@H](O)[C@H](O[C@@H]3[C@@H](O)[C@H](N)C[C@H](N)[C@H]3O[C@H]3O[C@H](CO)[C@@H](O)[C@H](O)[C@H]3N)O[C@@H]2CO)[C@H](N)[C@@H](O)[C@@H]1O		TMC 1467	MIC	0.19 µg/mL
CC[C@H]1OC(=O)[C@H](C)[C@@H](O[C@H]2C[C@@](C)(OC)[C@@H](O)[C@H](C)O2)[C@H](C)[C@@H](O[C@@H]2O[C@H](C)C[C@H](N(C)C)[C@H]2O)[C@](C)(OC)C[C@@H](C)C(=O)[C@H](C)[C@@H](O)[C@]1(C)O		1168	MIC	4 µg/mL
CC(C)(N)C1CCN(c2c(F)cc3c(=O)c(C(=O)O)cn(C4CC4)c3c2F)C1		14 strains	MIC50	4 µg/mL
CC[C@@H](CO)NCCN[C@@H](CC)CO		1129	MIC	8 µg/mL
CO[C@H]1/C=C/O[C@@]2(C)Oc3c(C)c(O)c4c(O)c(c5c(c4c3C2=O)NC2(CCN(CC(C)C)CC2)N=5)=NC(=O)/C(C)=C\C=C\[C@H](C)[C@H](O)[C@@H](C)[C@@H](O)[C@@H](C)[C@H](OC(C)=O)[C@@H]1C		10 isolates (HIV+)	MIC50	0.125 µg/mL
O=C(O)c1cn(C2CC2)c2c(F)c(N3CC4C(CO)C4C3)c(F)cc2c1=O		14 strains	MIC50	8 µg/mL
CC1CN(c2cc3c(cc2F)c(=O)c(C(=O)O)cn3-c2ccc(F)cc2F)CCN1		3217	MIC	4 µg/mL
CC(C)N=c1cc2n(-c3ccc(Cl)cc3)c3ccccc3nc-2cc1Nc1ccc(Cl)cc1		559/HIV+	MIC	0.25 µg/mL
CC1CN(c2c(F)cc3c(=O)c(C(=O)O)cn(C4CC4)c3c2Br)CC(C)N1		14 strains	MIC50	0.5 µg/mL
CCn1cc(C(=O)O)c(=O)c2cc(F)c(N3CCNCC3)cc21		CIPT 14031001	MIC	10 µg/mL
NCC[C@H](O)C(=O)N[C@@H]1C[C@H](N)[C@@H](O[C@H]2O[C@H](CN)[C@@H](O)[C@H](O)[C@H]2O)[C@H](O)[C@H]1O[C@H]1O[C@H](CO)[C@@H](O)[C@H](N)[C@H]1O		TMC 1411	MIC	0.19 µg/mL
CC1CN(c2c(F)cc3c(=O)c(C(=O)O)cn(C4CC4)c3c2F)CCN1		1172733	MIC	1 µg/mL
CC1CN(c2nc3c(cc2F)c(=O)c(C(=O)O)cn3C(C)(C)C)CCN1		14 strains	MIC50	0.5 µg/mL
O=C(O)c1cn(C2CC2)c2c(F)c(N3CCS(=O)(=O)CC3)c(F)cc2c1=O		1760694	MIC	4 µg/mL
CO[C@H]1/C=C/O[C@@]2(C)Oc3c(C)c(O)c4c(O)c(c5c(c4c3C2=O)NC2(CCN(CC(C)C)CC2)N=5)=NC(=O)/C(C)=C\C=C\[C@H](C)[C@H](O)[C@@H](C)[C@@H](O)[C@@H](C)[C@H](OC(C)=O)[C@@H]1C		9141	MIC	1 µg/mL
CC1COc2c(N3CCN(C)CC3)c(F)cc3c(=O)c(C(=O)O)cn1c23		1295/HIV-	MIC	4 µg/mL
CN[C@@H]1[C@H](O[C@H]2[C@H](O[C@H]3[C@H](O)[C@@H](O)[C@H](N=C(N)N)[C@@H](O)[C@@H]3N=C(N)N)O[C@@H](C)[C@]2(O)C=O)O[C@@H](CO)[C@H](O)[C@H]1O		13887 (serotype 14)	MIC	1.6 µg/mL
CO[C@H]1/C=C/O[C@@]2(C)Oc3c(C)c(O)c4c(O)c(c(/C=N/N5CCN(C/C=C/c6ccccc6)CC5)c(O)c4c3C2=O)NC(=O)/C(C)=C\C=C\[C@H](C)[C@H](O)[C@@H](C)[C@@H](O)[C@@H](C)[C@H](OC(C)=O)[C@@H]1C		LR562	MIC	≤0.015 µg/mL
NC[C@H]1O[C@H](O[C@H]2[C@H](O)[C@@H](O[C@H]3O[C@H](CO)[C@@H](O)[C@H](N)[C@H]3O)[C@H](N)C[C@@H]2N)[C@H](O)[C@@H](O)[C@@H]1O		N-265 (HIV-)	MIC	8 µg/mL
C[C@@H]1CN(c2c(F)c(N)c3c(=O)c(C(=O)O)cn(C4CC4)c3c2F)C[C@H](C)N1	broth dilution	16	MIC	0.5 µg/mL
CC1(CN)CCN(c2c(F)cc3c(=O)c(C(=O)O)cn(C4CC4)c3c2F)C1		1760694	MIC	32 µg/mL
CCC1CN(c2c(F)cc3c(=O)c(C(=O)O)cn(C4CC4)c3c2F)CCN1		14 strains	MIC50	2 µg/mL
O=C(O)c1cn(C2CC2)c2c(F)c(N3CCS(=O)CC3)c(F)cc2c1=O		14 strains	MIC50	1 µg/mL
NCCC(O)C(N)CC(=O)NC1CNC(=O)C(C2CCN=C(N)N2)NC(=O)/C(=C/NC(N)=O)NC(=O)C(CO)NC(=O)C(CO)NC1=O		Isolate 93	MIC	25 µg/mL
CN(C)c1c(F)c(N2CCC(N(C)C)C2)c(F)c2c1c(=O)c(C(=O)O)cn2C1CC1		1915112	MIC	32 µg/mL
CC[C@H]1OC(=O)[C@H](C)[C@@H](O[C@H]2C[C@@](C)(OC)[C@@H](O)[C@H](C)O2)[C@H](C)[C@@H](O[C@@H]2O[C@H](C)C[C@H](N(C)C)[C@H]2O)[C@](C)(O)C[C@@H](C)C(=O)[C@H](C)[C@@H](O)[C@]1(C)O		3211	MIC	64 µg/mL
CC1CN(c2cc3c(cc2F)c(=O)c(C(=O)O)cn3C(C)(C)C)CCN1		14 strains	MIC90	1 µg/mL
CN[C@@H]1[C@@H](O)[C@@H](O[C@@H]2[C@@H](O)[C@H](O[C@H]3O[C@H](CN)CC[C@H]3N)[C@@H](N)C[C@H]2N)OC[C@]1(C)O		Isolate 49	MIC	3.13 µg/mL
CN(C)C1CCN(c2c(F)cc3c(=O)c(C(=O)O)cn(C4CC4)c3c2F)C1		PI12/39	MIC	0.5 µg/mL
NCC[C@H](O)C(=O)N[C@@H]1C[C@H](N)[C@@H](O[C@H]2O[C@H](CN)[C@@H](O)[C@H](O)[C@H]2O)[C@H](O)[C@H]1O[C@H]1O[C@H](CO)[C@@H](O)[C@H](N)[C@H]1O		536/HIV+	MIC	0.61 µg/mL
NC[C@H]1O[C@H](O[C@H]2[C@H](O[C@@H]3O[C@H](CO)[C@@H](O)[C@H]3O)[C@@H](O)[C@H](N)C[C@@H]2N)[C@H](N)[C@@H](O)[C@@H]1O		TMC 1469	MIC	1.56 µg/mL
O=C(O)c1cn(C2CC2)c2c(F)c(N3CCC(NC4CC4)C3)c(F)cc2c1=O		14 strains	MIC50	1 µg/mL
CC[C@@H](CO)NCCN[C@@H](CC)CO		N-265 (HIV-)	MIC	8 µg/mL
CC(C)N1CCN(c2c(F)cc3c(=O)c(C(=O)O)cn(C4CC4)c3c2Cl)CC1		14 strains	MIC50	2 µg/mL
CC1COc2c(N3CCN(C)CC3)c(F)cc3c(=O)c(C(=O)O)cn1c23		CIPT 140310030	MIC	20 µg/mL

The last 4 rows once more:

{"SMILES": "O=C(O)c1cn(C2CC2)c2c(F)c(N3CCC(NC4CC4)C3)c(F)cc2c1=O", "strain": "14 strains", "endpoint": "MIC50", "result": "1 µg/mL"}
{"SMILES": "CC[C@@H](CO)NCCN[C@@H](CC)CO", "strain": "N-265 (HIV-)", "endpoint": "MIC", "result": "8 µg/mL"}
{"SMILES": "CC(C)N1CCN(c2c(F)cc3c(=O)c(C(=O)O)cn(C4CC4)c3c2Cl)CC1", "strain": "14 strains", "endpoint": "MIC50", "result": "2 µg/mL"}
{"SMILES": "CC1COc2c(N3CCN(C)CC3)c(F)cc3c(=O)c(C(=O)O)cn1c23", "strain": "CIPT 140310030", "endpoint": "MIC", "result": "20 µg/mL"}

An empty or dashed field is not shown. Neighbouring rows are from separate reports.